Experimental data as given in patent US20240209034A1 (priority 2021, published 2024).

Test: in vitro
Settings: mouse, serum

Question: Which remaining at 24 h does the source give for `CC(C)C[C@@H]1NC(=O)[C@H](CC(=O)O)NC(=O)CNC(=O)[C@H](CCCNC(=N)N)NC(=O)[C@H](CC(C)C)NC(=O)[C@H](CC(N)=O)NC(=O)[C@@H]2C[C@@H](O)CN2C(=O)[C@H](C(C)C)NC(=O)[C@@H](NC(=O)[C@H](CC(N)=O)NC(=O)CCCC[C@@H]2SC[C@@H]3NC(=O)N[C@@H]32)CSc2c(F)c(F)c(c(F)c2F)-c2c(F)c(F)c(c(F)c2F)SC[C@@H](C(=O)N[C@H](CCCNC(=N)N)C(=O)N[C@H](C(=O)N[C@@H](CCCCN)C(=O)N[C@H](C)C(N)=O)[C@@H](C)O)NC(=O)[C@H](C(C)C)NC(=O)[C@H](CCCCN)NC(=O)[C@H](CCC(N)=O)NC(=O)[C@H](C)NC(=O)[C@H](CC(C)C)NC(=O)[C@H](C(C)C)NC(=O)[C@H](CCC(N)=O)NC1=O` [C2C18 Ph RDTKAD DFBP] here?
Answer: The remaining at 24 h was 10.9%.
